Test results taken from paper PMC12366332 (Applied and Environmental Microbiology, 2025).

Test system: X. fastidiosa subsp. fastidiosa IVIA 5387.2

CC[C@H](C)[C@H](NC(=O)CNC(=O)[C@H](C)NC(=O)[C@@H]1CCCN1C(=O)CNC(=O)[C@H](C)NC(=O)[C@H](CC(C)C)NC(=O)[C@H](Cc1ccc(O)cc1)NC(=O)[C@H](CCCCN)NC(=O)[C@H](CC(C)C)NC(=O)[C@@H](NC(=O)[C@H](CCCCN)NC(=O)[C@H](CCCCN)NC(=O)[C@H](Cc1ccccc1)NC(=O)[C@H](CC(C)C)NC(=O)[C@H](CCCCN)NC(=O)[C@@H](N)CCCCN)[C@@H](C)CC)C(=O)NCC(=O)N[C@@H](CCCCN)C(=O)N[C@@H](Cc1ccccc1)C(=O)N[C@@H](CC(C)C)C(=O)N[C@@H](Cc1c[nH]cn1)C(=O)N[C@@H](CO)C(=O)N[C@@H](C)C(=O)N[C@@H](CCCCN)C(=O)N[C@@H](CCCCN)C(=O)N[C@@H](CC(=O)O)C(=O)N[C@@H](CCC(=O)O)C(=O)N[C@@H](CC(C)C)C(=O)O [BP178]
Bactericidal activity Level: Very High (key: Very High: very high bactericidal activity (>2.5 log); High: high bactericidal activity (between 2.0 and 2.5 log); Moderate: a moderate activity (between 1.5 and 2.0 log); Low: low active (<1.5 log))
Bactericidal activity Reduction in viability (Log N0/N) (12.5 µM): high activity
